The values below come from patent publication US8455223B2, “Dehydrogenases, the derivatives thereof, and method for the production of optically active alkanols” (BASF SE, priority 2005, dated 2013).

What all share (format): biochemical, Candida
For series [1], the system named is ADH-3 enzyme SEQ ID NO: 2. Kind of series: Relative activity of dehydrogenase for various substrates, with cofactor regeneration, monophasic liquid system (Example 2). To be noted: value in brackets, configuration R/S printed in cell. On the procedure:
Relative activity of the dehydrogenases of the invention for various substrates (optical purity in % ee is indicated in brackets) with cofactor regeneration.
The reaction was carried out in a manner similar to example 1. Cofactor regeneration was carried out by way of addition of glucose and glucose dehydrogenase in a monophasic liquid system.

Series [2] concerns ADH-3 enzyme SEQ ID NO: 2. The series is described as follows: Relative activity of dehydrogenase for various substrates, with cofactor regeneration in the 2-phase system (Example 3). To be noted: two-phase (MTBE: aqueous), value in brackets, configuration R/S printed in cell.
Series [3] relates to ADH-4 enzyme SEQ ID NO: 4. The description is as above. To be noted: two-phase (MTBE: aqueous), value in brackets, configuration R/S printed in cell.
The subject of series [4] is ADH-4 enzyme SEQ ID NO: 4. The series is described as follows: Relative activity of dehydrogenase for various substrates, without cofactor regeneration (Example 1). To be noted: value in brackets. On the procedure: (§1) Relative activity of the dehydrogenases of the invention for various substrates (optical purity in % ee is indicated in brackets)
(§2) The reaction was carried out without cofactor regeneration.
(§3) 180 μl of 50 mM Kpi buffer, including 1 mM MgCl2
(§4) 200 μl of NADPH, 10 mM stock solution
(§5) 100 μl of substrate, 1 M stock solution 500 μl of hexane
(§6) The reaction mixture was incubated at 37° C. and 1000 rpm for approx. 20 hours. It was then centrifuged at 20° C., the clear supernatant was removed and analyzed by chiral gas chromatography.

Series [5] relates to ADH-3 enzyme SEQ ID NO: 2. Described as above. To be noted: value in brackets. On the procedure:
as §1, §2, §3, §4, §5, §6

For `CC(=O)c1ccccc1` [Acetophenone], the optical purity in series [1] is greater than 99 % ee; in series [2], greater than 99 % ee; in series [3], 70 % ee; in series [4] it was 70 % ee; in series [5], greater than 99 % ee.
Consider 4-chloro-methoxyacetophenone [CMAP], for which the optical purity in series [2] was greater than 99 % ee; in series [3], 97 % ee; in series [4] it was 88 % ee; in series [5], 90 % ee.
